Results of unrelated studies side by side (data: NIAID ChemDB).

All rows: tests in culture; organism: HIV-1; cells: Macrophage + Monocytes/macrophages; endpoint: EC50

Rows are shuffled and stem from different studies.

| SMILES | strain or isolate | changes | method | conditions | result |
|---|---|---|---|---|---|
| Cc1cn([C@H]2C[C@H](N=[N+]=[N-])[C@@H](CO)O2)c(=O)[nH]c1=O | Primary clinical isolate Rome | - | p24 | - | <3.7 µM |
| CC(C)[C@H](NC(=O)c1ccc2ccccc2n1)C(=O)N[C@@H](Cc1ccccc1)[C@H](O)CN1CC[C@@H](OCc2ccncc2)C[C@H]1C(=O)NC(C)(C)C | ADA | - | p24 | - | 0.004 µM |
| COc1ccccc1CN[C@H]1C2CCN(CC2)[C@H]1C(c1ccccc1)c1ccccc1 | CSF-8 Primary R5 isolate | - | RT activity | - | <0.1 µM |
| C[C@H](Cn1cnc2c(N)nc(N)nc21)OCP(=O)(O)O | BaL | - | p24 / syncytia | - | 0.02 µM |
| Nc1ccn([C@H]2CC[C@@H](CO)O2)c(=O)n1 | BaL | - | p24 | - | 0.0003 µM |
| NS(=O)(=O)c1ccc(SSc2ccc(S(N)(=O)=O)cc2[N+](=O)[O-])c([N+](=O)[O-])c1 | ADA | - | XTT / p24 | - | 42 µM |
| Cc1cn([C@H]2C[C@H](N=[N+]=[N-])[C@@H](CO)O2)c(=O)[nH]c1=O | D79 | - | p24 / ELISA | - | 0.027 µM |
| CC(=O)O[C@@H]1[C@H](OC(=O)CC(C)C)c2c(ccc3ccc(=O)oc23)OC1(C)C | IIIB | - | p24 | - | 3.9 µM |
| Nc1nc(N)c2ncn(CC(CF)OCP(=O)(O)O)c2n1 | BaL | - | - | - | 0.2 µM |
| Nc1nc(NC2CC2)c2ncn([C@H]3C=C[C@@H](CO)C3)c2n1 | SF162 | - | p24 | - | >0.5 µM |
| CCNc1cccnc1N1CCN(C(=O)c2cc3cc(OC)ccc3[nH]2)CC1 | BaL | - | p24 | - | 0.72 µM |
| Cc1cn([C@H]2C[C@H](N=[N+]=[N-])[C@@H](CO)O2)c(=O)[nH]c1=O | BaL | - | RT activity | - | 0.015 µM |
| Cc1c(O)c(=O)ccn1C | BaL | - | XTT / p24 | - | >100 µM |
| COc1cc(C(=O)N2CCN(C(=O)c3cc(OC)c(OC)c(OC)c3)C(COC(=O)C(C)(C)C)C2)cc(OC)c1OC | BaL | - | RT activity | - | >100 µM |
| O=C1c2ccccc2C2(c3ccccc3)SCCN12 | D79 | - | p24 / ELISA | - | 0.083 µM |
| Cc1cn([C@H]2C[C@H](N=[N+]=[N-])[C@@H](CO)O2)c(=O)[nH]c1=O | BaL | - | p24 | - | <0.1 µM |
| Cc1ccnc2c1NC(=O)c1cccnc1N2C1CC1 | BaL | - | p24 | - | 0.07 µM |
| Cc1cn([C@H]2C[C@H](N=[N+]=[N-])[C@@H](CO)O2)c(=O)[nH]c1=O | ADA | - | cytopathic effect / XTT | clinical isolate | 0.01 µM |
| CC(C)(C)NC(=O)[C@@H]1C[C@@H]2CCCC[C@@H]2CN1C[C@@H](O)[C@H](Cc1ccccc1)NC(=O)[C@H](CC(N)=O)NC(=O)c1ccc2ccccc2n1 | BaL | - | p24 | - | 0.02 µM |
| COc1ccc2c(c1)N(C(=O)OC(C)C)[C@@H](CSC)C(=S)N2 | D117III | - | p24 | - | 0.006 µM |
| Cc1cn([C@H]2C[C@H](N=[N+]=[N-])[C@@H](CO)O2)c(=O)[nH]c1=O | BaL | RT-P236L | p24 | - | 0.18 µM |
| Cc1cn([C@H]2C[C@H](N=[N+]=[N-])[C@@H](CO)O2)c(=O)[nH]c1=O | BaL | - | p24 | - | 0.002 µM |

A second listing of 2 rows from above:

| SMILES | strain or isolate | changes | method | conditions | result |
|---|---|---|---|---|---|
| Nc1nc(N)c2ncn(CC(CF)OCP(=O)(O)O)c2n1 | BaL | - | - | - | 0.2 µM |
| Nc1nc(NC2CC2)c2ncn([C@H]3C=C[C@@H](CO)C3)c2n1 | SF162 | - | p24 | - | >0.5 µM |

An empty or dashed field is not shown. ECn is the concentration giving n% inhibition of infection, replication or growth.